Here are results for six compounds from patent publication US9951097B2, “Antibacterial compounds targeting isoprenoid biosynthesis” (priority 2012, dated 2018).

Protein sequences, listed by entry. Tags and fused reporters are not part of them.
UniProt P60477, whole entry: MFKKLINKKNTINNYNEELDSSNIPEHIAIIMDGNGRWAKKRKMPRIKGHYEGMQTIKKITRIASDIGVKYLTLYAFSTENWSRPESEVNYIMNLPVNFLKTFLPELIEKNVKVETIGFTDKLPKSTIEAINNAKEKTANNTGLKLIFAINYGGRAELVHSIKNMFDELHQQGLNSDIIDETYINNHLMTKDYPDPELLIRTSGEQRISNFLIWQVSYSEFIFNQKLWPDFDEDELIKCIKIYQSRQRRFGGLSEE
UniProt P60472, whole entry: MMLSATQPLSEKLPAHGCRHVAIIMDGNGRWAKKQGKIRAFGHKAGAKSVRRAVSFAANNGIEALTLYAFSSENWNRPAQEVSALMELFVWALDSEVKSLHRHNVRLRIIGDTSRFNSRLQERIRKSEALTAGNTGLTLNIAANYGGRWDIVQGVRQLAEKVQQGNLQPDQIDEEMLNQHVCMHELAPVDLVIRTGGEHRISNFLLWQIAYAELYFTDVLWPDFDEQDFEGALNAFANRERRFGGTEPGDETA

Read-outs that look alike come from different tables or passages of the source.

Assay [1] concerns E. coli. The assay can be described thus: E. coli cell growth inhibition. Format: cell-based.
Assay [2] addresses S. aureus UPPS (Staphylococcus aureus, UniProt P60477). Particulars: read-out: S. aureus UPPS IC50.
The target in assay [3] is E. coli UPPS (Escherichia coli, UniProt P60472). The assay can be described thus: E. coli UPPS inhibition assay. Conditions: read-out: E. coli UPPS IC50. Format: biochemical.
In assay [4] the target is UPPS. Nature of the assay: UPPS inhibition, enzyme species not given. It counts as biochemical. Particulars: read-out: UPPS IC50.
The subject of assay [5] is S. aureus (USA300 strain). Nature of the assay: S. aureus cell growth inhibition. Format: cell-based. Conditions: USA300, MRSA strain.
For assay [6], the system named is S. aureus (USA300 strain). Particulars: previous work (Zhang et al. 2012); cited from earlier work.
Assay [7] has as its system Bacillus anthracis. Particulars: previous work (Zhang et al. 2012); cited from earlier work.
Assay [8] relates to Listeria monocytogenes. Particulars: previous work (Zhang et al. 2012); cited from earlier work.
Assay [9] deals with Enterococcus faecium. Particulars: previous work (Zhang et al. 2012); cited from earlier work.
Assay [10] has as its system Streptococcus pyogenes. Particulars: previous work (Zhang et al. 2012); cited from earlier work.

Turning to `O=C(Nc1cccc(Oc2ccc(C(=O)O)c(C(=O)O)c2)c1)c1ccc(-c2ccccc2)cc1`, the “E. coli MIC90” value in [1] amounted to 16 µg/mL. The concentration for half-maximal inhibition (IC50) – broadly, the concentration needed to halve the response being measured – in assay [2] amounted to 6.9 µM.

In the case of `Cc1ccc(Oc2cccc(NC(=O)c3ccccc3C(=O)O)c2)cc1C`, the “E. coli MIC90” value in assay [1] was greater than 32 µg/mL. Moreover, in assay [2], the IC50 came out at 170 µM.

Turning to `O=C(Nc1ccc(Br)cc1C(=O)O)c1ccc(S(=O)(=O)N2CCc3cc(Cl)ccc32)cc1`, the half-inhibitory concentration (IC50) in assay [3] is 1.4 µM; in assay [4], 1 to 2 µM; in [2], 1.6 µM. Further, the “E. coli MIC90” value in [1] is greater than 32 µg/mL. Further, in assay [5], the “S. aureus MIC90” value worked out at 1 µg/mL.

With `CCCCCCCCOc1ccc(C(=O)C=C(O)C(=O)O)cc1`, the “E. coli MIC90” value in [1] is greater than 32 µg/mL. The “S. aureus MIC90” value in [5] was 0.25 µg/mL; in assay [6] it was 0.25 to 0.5 µg/mL. Also, the IC50 in assay [2] was 2 µM. Moreover, in assay [7], the “Bacillus anthracis MIC90” value was 0.5 µg/mL. In addition, in [8], the “Listeria monocytogenes MIC90” value is 4 µg/mL. Also, in assay [9], the “Enterococcus faecium MIC90” value is 4 µg/mL. For the same compound, the “Streptococcus pyogenes MIC90” value in assay [10] was 1 µg/mL.

Take `Cc1ccc(Oc2cccc(NC(=O)c3cc([N+](=O)[O-])ccc3C(=O)O)c2)cc1C`: the “E. coli MIC90” value in [1] is greater than 32 µg/mL. Also, the IC50 in assay [2] was 72 µM.

`CCCCCCCCCCOc1cccc(C(=O)C=C(O)C(=O)O)c1`: the “E. coli MIC90” value in assay [1] is greater than 32 µg/mL. Further, the “S. aureus MIC90” value in assay [5] came to 0.5 µg/mL. Further, the IC50 in assay [2] was determined as 0.73 µM.
